A mixed list of measured activities; the numbers were collected in NIAID ChemDB.

Shared fields: growth or infection tests; agent: Hepatitis B virus

Inhibition is in % at the dose shown (toxicity tests: loss of growth or viability).

| smiles | method | read-out | tested at | cell line | value |
|---|---|---|---|---|---|
| O=C(O[C@@H]1Cc2c(O)cc(O)cc2O[C@@H]1c1cc(O)c(O)c(O)c1)c1cc(O)c(O)c(O)c1 | PCR | inhibition | 50 µM | - | 63% |
| CNc1n[nH]c2cc(-n3c(=O)c4c(n5ncc(CC(C)C)c35)CN(C(=O)c3ccc(Cl)c(C(F)(F)F)c3)[C@@H](C)C4)ccc12 | luminescence | EC50 | - | HepG2.117 | 0.05–0.5 µM |
| C[C@@H](NC(=O)c1c2n(c(=O)n1-c1ccc(OCC(F)(F)F)cc1)CCN(C(=O)c1ccc(Br)c(Cl)c1)C2)c1ccc(OC(C)(C)C(N)=O)cc1F | PCR | EC50 | - | HepG2.117 | 0.1–0.5 µM |
| CC1c2cc(C(=O)O)c(=O)n(C3CC3)c2-c2cc(Cl)c(O)cc2S1(=O)=O | antigen / visual reading / absorbance | EC50 | - | Primary human hepatocytes | >0.5 µM |
| Oc1ccc([C@H]2Oc3cccc(O)c3C(c3c(O)cc(O)c4c3O[C@H](c3ccc(O)c(O)c3)[C@@H](O)C4)[C@H]2O)cc1O | ELISA / antigen | inhibition | 30 µM | HepG2.2.15 | 68.8% |
| CCC1c2cc(C(=O)O)c(=O)n(C3CCC3)c2-c2cc(Cl)c(OCCCOC)cc2S1(=O)=O | antigen / visual reading / absorbance | EC50 | - | Primary human hepatocytes | >0.5 µM |
| CNC(=O)c1cnc(-n2c(=O)c3c(n4ncc(CC(C)C)c24)CN(C(=O)c2ccc(Br)c(C(F)(F)F)c2)[C@@H](C)C3)cn1 | luminescence | EC50 | - | HepG2.117 | 0.05–0.5 µM |
| CC1c2cc(C(=O)O)c(=O)n(C3CC3)c2-c2cc(Cl)c(-c3cnn(C)c3)cc2S1(=O)=O | antigen / visual reading / absorbance | EC50 | - | Primary human hepatocytes | 0.1–0.5 µM |
| O=C(NCc1ccccc1-n1cccn1)c1c2n(c(=O)n1-c1ccc(OC3CC3)cc1)CCN(C(=O)c1ccc(Br)c(Cl)c1)C2 | PCR | EC50 | - | HepG2.117 | <0.1 µM |
| CNc1n[nH]c2cc(-n3c(=O)c4c(n5ncc(Cc6ccccc6)c35)CN(C(=O)c3ccc(Br)c(C(F)(F)F)c3)[C@H](C)C4)ccc12 | luminescence | EC50 | - | HepG2.117 | ≤0.05 µM |
| Cn1cc(-c2cc3c(cc2Cl)-c2c(cc(C(=O)O)c(=O)n2C2CC2)CS3(=O)=O)cn1 | antigen / visual reading / absorbance | EC50 | - | Primary human hepatocytes | >0.1 µM |
| Nc1ccn([C@@H]2CS[C@H](CO)O2)c(=O)n1 | - | EC90 | - | HepAD38 | 0.3 µM |
| C[C@@H](NC(=O)c1c2n(c(=O)n1-c1ccc(OC3CC3)cc1)CCN(C(=O)c1ccc(Br)c(Cl)c1)C2)c1ccc(OCC(N)=O)cc1F | PCR | EC50 | - | HepG2.117 | 0.5–5 µM |
| Cc1cnn(-c2ccc(-n3c(=O)c4c(n5ncc(Cc6ccccc6)c35)CN(C(=O)c3ccc(Br)c(C(F)(F)F)c3)[C@H](C)C4)cc2)n1 | luminescence | EC50 | - | HepG2.117 | ≤0.05 µM |
| C[C@H]1Cn2c(c(C(=O)NC(C)(C)c3ccccc3)n(-c3ccc(-n4cccn4)cc3)c2=O)CN1C(=O)c1ccc(Br)c(Cl)c1 | PCR | EC50 | - | HepG2.2.15 | 0.1–0.5 µM |
| CCOCCOc1cc2c(cc1Cl)-c1c(cc(C(=O)O)c(=O)n1C1CC1)CS2(=O)=O | antigen / visual reading / absorbance | EC50 | - | Primary human hepatocytes | 0.1–0.5 µM |

For reference, 2 entries again:

{"smiles": "CNC(=O)c1cnc(-n2c(=O)c3c(n4ncc(CC(C)C)c24)CN(C(=O)c2ccc(Br)c(C(F)(F)F)c2)[C@@H](C)C3)cn1", "method": "luminescence", "read-out": "EC50", "cell line": "HepG2.117", "value": "0.05–0.5 µM"}
{"smiles": "Nc1ccn([C@@H]2CS[C@H](CO)O2)c(=O)n1", "read-out": "EC90", "cell line": "HepAD38", "value": "0.3 µM"}

Conditions beyond the fields shown may differ between rows. ECn: concentration that inhibits the pathogen or its effect by n%. Two numbers with a dash give a range or band. Blank or dashed fields: not listed here.